{"source": "PubChem BioAssay AID504761 (Drosophila RNAi Screening Center, 2011)", "purpose": "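Genome-wide fly cell screen for genes dengue virus requires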 (primary screen)", "system": "D.Mel-2 cells from Drosophila", "knock-down reagent": "long dsRNA against Drosophila genes", "challenge": "infection with dengue virus type 2; dose and infection time not stated", "detection": "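Per well on two replicate plates, imaging gave the percent of cells positive for viral envelope protein, ranked by infection, and a nuclear count of cells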", "scale": "infection score: higher = more virus-infected cells; cell count: higher = more cells in the well", "active means": "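Very low infection ranking in both replicate wells (chance probability at most 0.065), then a retest showing infection dropped 1.5-fold or more at p below 0.05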", "meaning of the calls": "active = confirmed: knock-down lowers infection; inactive = not picked or not confirmed", "note": "The screen tested about 22,000 reagents; this is a random part of those with a known target gene and a result. Over the whole deposit, 116 (0.52%) were called active. 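Calls depend on retest data that are not deposited; infection was ranked per plate without normalising between plates; the unit of the infection score is not given.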 The raw values are shown without normalisation. Entries without a mark were called inactive. The numbers tell different reagents against one gene apart. Not all columns of the deposit are shown. Not stated in the record: the amount of reagent, the time to read-out."}
{"gene": "loqs (loquacious)", "reagent no.": 1, "infection score, replicate 1": 9.53, "cell count, replicate 1": 4764}
{"gene": "CG3061", "reagent no.": 1, "infection score, replicate 1": 5.92, "cell count, replicate 1": 6593}
{"gene": "CG3061", "reagent no.": 2, "infection score, replicate 1": "0.67 (active)", "cell count, replicate 1": 6570}
{"gene": "Naxd (NAD(P)HX dehydratase)", "reagent no.": 1, "infection score, replicate 1": 1.34, "cell count, replicate 1": 6696}
{"gene": "CG30428", "reagent no.": 1, "infection score, replicate 1": 3.71, "cell count, replicate 1": 5659}
{"gene": "CG30428", "reagent no.": 2, "infection score, replicate 1": 22.7, "cell count, replicate 1": 5242}
{"gene": "CG14414", "reagent no.": 1, "infection score, replicate 1": 34, "cell count, replicate 1": 4016}
{"gene": "RhoGAP93B (Rho GTPase activating protein at 93B)", "reagent no.": 1, "infection score, replicate 1": 6.73, "cell count, replicate 1": 5556}
{"gene": "RabX1", "reagent no.": 1, "infection score, replicate 1": 14.4, "cell count, replicate 1": 6286}
{"gene": "CG9522", "reagent no.": 1, "infection score, replicate 1": 11.5, "cell count, replicate 1": 3982}
{"gene": "CG30034 (retired record)", "reagent no.": 1, "infection score, replicate 1": 3.14, "cell count, replicate 1": 6180}
{"gene": "spidey", "reagent no.": 1, "infection score, replicate 1": 4.73, "cell count, replicate 1": 6137}
{"gene": "spidey", "reagent no.": 2, "infection score, replicate 1": 3.07, "cell count, replicate 1": 6641}
{"gene": "Pten (Phosphatase and tensin homolog)", "reagent no.": 1, "infection score, replicate 1": 1.65, "cell count, replicate 1": 6288}
{"gene": "Pten (Phosphatase and tensin homolog)", "reagent no.": 2, "infection score, replicate 1": 36.4, "cell count, replicate 1": 5400}
{"gene": "Nplp2 (Neuropeptide-like precursor 2)", "reagent no.": 1, "infection score, replicate 1": 2.6, "cell count, replicate 1": 6226}
{"gene": "CG6763", "reagent no.": 1, "infection score, replicate 1": 3.48, "cell count, replicate 1": 689}
{"gene": "CG6763", "reagent no.": 2, "infection score, replicate 1": 6.44, "cell count, replicate 1": 6394}
{"gene": "Smyd4-2 (SET and MYND domain containing, class 4, member 2)", "reagent no.": 1, "infection score, replicate 1": 2.12, "cell count, replicate 1": 6591}
{"gene": "Smyd4-2 (SET and MYND domain containing, class 4, member 2)", "reagent no.": 2, "infection score, replicate 1": 2.15, "cell count, replicate 1": 6237}
{"gene": "Cyp318a1 (Cytochrome P450 318a1)", "reagent no.": 1, "infection score, replicate 1": 1.5, "cell count, replicate 1": 6416}
{"gene": "CG9550", "reagent no.": 1, "infection score, replicate 1": 3.04, "cell count, replicate 1": 6082}
{"gene": "CG9550", "reagent no.": 2, "infection score, replicate 1": 13.6, "cell count, replicate 1": 5611}
{"gene": "CG31221", "reagent no.": 1, "infection score, replicate 1": 7.27, "cell count, replicate 1": 6139}
{"gene": "CG31221", "reagent no.": 2, "infection score, replicate 1": 1.3, "cell count, replicate 1": 6931}
{"gene": "CG31221", "reagent no.": 3, "infection score, replicate 1": 1.91, "cell count, replicate 1": 6895}
{"gene": "RpS8 (Ribosomal protein S8)", "reagent no.": 1, "infection score, replicate 1": 2.63, "cell count, replicate 1": 1219}

Targets above whose target name begins with P or p (2):
{"gene": "Pten (Phosphatase and tensin homolog)", "reagent no.": 1, "infection score, replicate 1": 1.65, "cell count, replicate 1": 6288}
{"gene": "Pten (Phosphatase and tensin homolog)", "reagent no.": 2, "infection score, replicate 1": 36.4, "cell count, replicate 1": 5400}
